In US20150285818A1, “Switchable Reporter Enzymes for Homogenous Antibody Detection” (TECHNISCHE UNIVERSITEIT EINDHOVEN, priority 2012, published 2015):
Numbering of substitutions follows the chain as printed. Names and notes keep the numbering of the source.

B1: Abs3-1: Abs-3 variant with E104D in β-lactamase and E31A in BLIP; SEQ ID NO: 22 (protein)
chain: MSIQHFRVALIPFFAAFCLPVFAHHHHHHLVPRGSHPETLVKVKDAEDQLGARVGYIELDLNSGKILESFRPEERFPMMSTFKVLLCGAVLSRIDAGQEQLGRRIHYSQNDLVDYSPVTEKHLTDGMTVRELCSAAITMSDNTAANLLLTTIGGPKELTAFLHNMGDHVTRLDRWEPELNEAIPNDERDTTMPVAMATTLRKLLTGELLTLASRQQLIDWMEADKVAGPLLRSALPAGWFIADKSGAGERGSRGIIAALGPDGKPSRIVVIYTTGSQATMDERNRQIAEIGASLIKHWTSGGELDRWEKIRLRPGGSGGSGGSGGSGGSGGSGAEAAAKEAAAKEAAAKEAAAKEAAAKEAAAKAGSGGSGGSGGSGGSGGSGAEAAAKEAAAKEAAAKEAAAKEAAAKEAAAKAGSGGSGGSGGSGGSGGSGGELDRWEKIRLRPGGSHGAGVMTGAKFTQIQFGMTRQQVLDIAGAENCATGGSFGDSIHCRGHAAGDYYAYATFGFTSAAADAKVDSKSQEKLLAPSAPTLTLAKFNQVTVGMTRAQVLATVGQGSCTTWSEYYPAYPSTAGVTLSLSCFDVDGYSSTGFYRGSAHLWFTDGVLQGKRQWDLVGEFGGWSHPQFEK
B2: Abs3-2: Abs-3 variant with E104D in β-lactamase and F142A in BLIP; SEQ ID NO: 37 (protein)
chain: B1 chain with A482E, F593A
B3: Abs2-2: Abs3-2 with the large epitope changed for the shorter WEKIRLR epitope; SEQ ID NO: 20 (protein)
chain: MSIQHFRVALIPFFAAFCLPVFAHHHHHHLVPRGSHPETLVKVKDAEDQLGARVGYIELDLNSGKILESFRPEERFPMMSTFKVLLCGAVLSRIDAGQEQLGRRIHYSQNDLVDYSPVTEKHLTDGMTVRELCSAAITMSDNTAANLLLTTIGGPKELTAFLHNMGDHVTRLDRWEPELNEAIPNDERDTTMPVAMATTLRKLLTGELLTLASRQQLIDWMEADKVAGPLLRSALPAGWFIADKSGAGERGSRGIIAALGPDGKPSRIVVIYTTGSQATMDERNRQIAEIGASLIKHWTSGGWEKIRLRGGSGGSGGSGGSGGSGGSGAEAAAKEAAAKEAAAKEAAAKEAAAKEAAAKAGSGGSGGSGGPQGILGQGSGGSGGSGGSGAEAAAKEAAAKEAAAKEAAAKEAAAKEAAAKAGSGGSGGSGGSGGSGGSGGWEKIRLRGGSGGSHGAGVMTGAKFTQIQFGMTRQQVLDIAGAENCETGGSFGDSIHCRGHAAGDYYAYATFGFTSAAADAKVDSKSQEKLLAPSAPTLTLAKFNQVTVGMTRAQVLATVGQGSCTTWSEYYPAYPSTAGVTLSLSCFDVDGYSSTGAYRGSAHLWFTDGVLQGKRQWDLVGEFGGWSHPQFEK

Test system: anti-HIV1-p17 antibody
Assay: Reporter enzyme activity assay with nitrocefin and anti-HIV1-p17 antibody titration
Settings: for Kd lower than that of a single epitope peptide (Kd=42 nM): sensor Kd vs monovalent peptide Kd

Molecule	Kd lower than that of a single epitope peptide (Kd=42 nM) [fold]	increase of dissociation constant on changing long epitope for short WEKIRLR epitope (Abs2-2 vs Abs3-2) [fold]
B1	200	–
B2	200	–
B3	–	635
